Assay results: publication PMC8083904 (ACS infectious diseases, 2020)

Experiments:
[1] = test system: NC(=O)c1ccc[n+]([C@@H]2O[C@H](COP(=O)(O)OP(=O)(O)OC[C@H]3O[C@@H](n4cnc5c(N)ncnc54)[C@H](O)[C@@H]3O)[C@@H](O)[C@H]2O)c1; assay: purified protein; details: pH 7.4; 30.0 °C; varied: cofactor
[2] = test system: NC(=O)c1ccc[n+]([C@@H]2O[C@H](COP(=O)(O)OP(=O)(O)OC[C@H]3O[C@@H](n4cnc5c(N)ncnc54)[C@H](OP(=O)(O)O)[C@@H]3O)[C@@H](O)[C@H]2O)c1; assay: purified protein; details: pH 7.4; 30.0 °C; varied: cofactor

MEZ (Mtb malic enzyme) (Mycobacterium tuberculosis H37Rv)
K0.5 [1]: 0.5 ± 0.03 mM | K0.5 [2]: 1.4 ± 0.02 mM
